Experimental data: PMC10269552
The exact form of at least one protein or probe is not confirmed. Where cells or extracts were used, other partners may take part. For some assays here: Protein sequences can lack the tags named with them.

The chains behind the UniProt entries cited, without tags or fusion partners.
UniProt Q04207, whole entry: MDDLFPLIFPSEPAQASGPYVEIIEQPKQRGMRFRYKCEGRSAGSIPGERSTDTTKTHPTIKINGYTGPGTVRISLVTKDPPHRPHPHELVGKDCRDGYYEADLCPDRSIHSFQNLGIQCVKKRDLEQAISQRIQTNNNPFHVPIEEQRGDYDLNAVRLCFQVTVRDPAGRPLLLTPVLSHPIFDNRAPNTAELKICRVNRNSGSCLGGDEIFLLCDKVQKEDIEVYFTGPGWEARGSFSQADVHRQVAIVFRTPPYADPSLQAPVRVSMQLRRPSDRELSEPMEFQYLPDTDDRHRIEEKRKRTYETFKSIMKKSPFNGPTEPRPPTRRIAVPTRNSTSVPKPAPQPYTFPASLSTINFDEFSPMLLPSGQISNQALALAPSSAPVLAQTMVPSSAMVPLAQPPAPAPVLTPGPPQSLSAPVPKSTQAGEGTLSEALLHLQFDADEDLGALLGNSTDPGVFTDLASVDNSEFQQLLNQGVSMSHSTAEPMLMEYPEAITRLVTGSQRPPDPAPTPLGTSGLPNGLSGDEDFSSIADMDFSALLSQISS

Assays:
[1] = molecular target: T1, NF-kB p50 (UniProt P25799); experiment: DNA pull-down, immunoblot; conditions: LPS 12 h nuclear extract; Nuclear extracts of LPS-treated BMDCs, streptavidin Dynabeads; protein in an extract; label: biotin (pulldown), 32P (EMSA)
T1 sequence (looked up, limits assumed): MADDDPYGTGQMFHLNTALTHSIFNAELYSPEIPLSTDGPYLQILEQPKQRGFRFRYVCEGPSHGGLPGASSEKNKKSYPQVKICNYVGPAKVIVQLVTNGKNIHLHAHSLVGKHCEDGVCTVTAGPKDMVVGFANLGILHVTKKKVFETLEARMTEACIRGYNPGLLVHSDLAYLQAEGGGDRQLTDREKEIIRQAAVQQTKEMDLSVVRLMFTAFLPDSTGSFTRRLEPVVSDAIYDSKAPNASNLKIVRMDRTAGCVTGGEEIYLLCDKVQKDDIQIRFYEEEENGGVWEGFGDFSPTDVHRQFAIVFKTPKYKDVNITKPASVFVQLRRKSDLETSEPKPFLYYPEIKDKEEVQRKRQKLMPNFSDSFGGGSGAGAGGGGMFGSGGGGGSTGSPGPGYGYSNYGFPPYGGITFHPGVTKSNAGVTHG

[2] = molecular target: NF-kB p65 (UniProt Q04207); experiment: DNA pull-down, immunoblot; conditions: LPS 12 h nuclear extract; Nuclear extracts of LPS-treated BMDCs, streptavidin Dynabeads; protein in an extract; label: biotin (pulldown), 32P (EMSA)

CATTTGACAGGATACTCCCTCAGGACGGAAC (double strand) [CLEC1B-Pr]
binding result [1]: binds
binding result [2]: binds
